{"source": "PubChem BioAssay", "note": "Only a part is listed here, and it is no random draw. Active and inactive are the calls of the source. Cut-off read from the data, not from the text of the source, unless noted: active = inhibition above about 37%; inactive = the rest.", "data": [{"tested_on": "Hepatitis C virus NS3 helicase", "assay": "blockers of NS3h binding to ssDNA – biochemical, fluorescence polarization, LOPAC1280 library, primary screen (AID 687035)", "conditions": "Purified HCV NS3 helicase, Cy5-dT15 ssDNA binding fluorescence polarization; stronger effect = higher value; concentration not given here", "values": [{"smiles": "CN(C(=O)Cc1ccccc1)[C@@H]1CC[C@]2(CCCO2)C[C@H]1N1CCCC1", "inhibition": "inactive: -1%"}, {"smiles": "CN(CCCl)Cc1cc(Cl)c(NC2=NCCN2)c(Cl)c1", "inhibition": "inactive: -4%"}, {"smiles": "CN(C(=O)Cc1ccc(Cl)c(Cl)c1)[C@H]1CCCC[C@@H]1N1CCCC1", "inhibition": "inactive: -4%"}, {"smiles": "CN(C(=O)Cc1ccc(Cl)c(Cl)c1)[C@@H]1CCCC[C@@H]1N1CCCC1", "inhibition": "inactive: -5%"}, {"smiles": "CN(C(=O)Cc1ccc(Cl)c(Cl)c1)[C@@H]1CC[C@]2(CCCO2)C[C@H]1N1CCCC1", "inhibition": "inactive: -5%"}]}, {"tested_on": "not listed separately", "assay": "compounds altering Cy5-DNA-NS3h complex signal – biochemical, LOPAC1280, artefact control for HCV NS3 helicase inhibitor project (AID 687037; call rule not given here)", "conditions": "Cy5-DNA-NS3h complex fluorescence interference counterscreen", "values": [{"smiles": "CN(C(=O)Cc1ccccc1)[C@@H]1CC[C@]2(CCCO2)C[C@H]1N1CCCC1", "fluorescence ratio (interference)": "inactive: 1"}, {"smiles": "CN(CCCl)Cc1cc(Cl)c(NC2=NCCN2)c(Cl)c1", "fluorescence ratio (interference)": "inactive: 1"}, {"smiles": "CN(C(=O)Cc1ccc(Cl)c(Cl)c1)[C@H]1CCCC[C@@H]1N1CCCC1", "fluorescence ratio (interference)": "inactive: 1"}, {"smiles": "CN(C(=O)Cc1ccc(Cl)c(Cl)c1)[C@@H]1CCCC[C@@H]1N1CCCC1", "fluorescence ratio (interference)": "inactive: 1"}, {"smiles": "CN(C(=O)Cc1ccc(Cl)c(Cl)c1)[C@@H]1CC[C@]2(CCCO2)C[C@H]1N1CCCC1", "fluorescence ratio (interference)": "inactive: 1"}]}]}
